Test results published in patent US20130330358A1 (UNIVERSITY OF SOUTHERN CALIFORNIA, published 2013).

Assays:
Assay in all cases: ITC, titration against HAUSP TRAF domain, 20 °C
vIRF4^153-216 = target: T1, vIRF4^153-216 (Kaposi's-sarcoma-associated-herpesvirus …, UniProt Q2HR73 153-216)
T1 sequence: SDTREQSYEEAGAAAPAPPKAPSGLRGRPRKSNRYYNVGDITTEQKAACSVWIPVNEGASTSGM

vIRF4^[…]/Δ202-216 = vIRF4^[…]/Δ202-216 (Kaposi's-sarcoma-associated-herpesvirus …)
[1] = target: vIRF4^[…]/Δ202-216/Δ237-256 (Kaposi's-sarcoma-associated-herpesvirus …)

B1: HAUSP TRAF domain (HAUSP^62-205) (enzyme)
chain: DTSWRSEATFQFTVERFSRLSESVLSPPCFVRNLPWKIMVMPRFYPDRPHQKSVGFFLQCNAESDSTSWSCHAQAVLKIINYRDDEKSFSRRISHLFFHKENDWGFSNFMAWSEVTDPEKGFIDDDKVTFEVFVQADAPHGVAW
- Ka (vIRF4^153-216): 1.84e+06 M⁻¹
- Kd (vIRF4^153-216): 0.54 µM
- Ka (vIRF4^[…]/Δ202-216): 290000 M⁻¹
- Kd (vIRF4^[…]/Δ202-216): 3.45 µM
- Ka [1]: 250000 M⁻¹
- Kd [1]: 4.03 µM
